This experiment concerns the target Importin α2/β1 heterodimer (mouse), tagless recombinant, preformed, mouse, P52293 1-529; P70168 1-876. Kind of experiment: circular dichroism.

For the substance “Hendra virus V protein L174A/L177A, tagless recombinant”, the result was “binds”.

The values above are taken from article PMC5762688, “Recognition by host nuclear transport proteins drives disorder-to-order transition in Hendra virus V” (2018).
